# Test results as given in PubChem BioAssay AID1272365 (Small Molecule Screening Facility, UW Madison, 2020).
# The entries are a selection whose mix differs from that of the whole data set. Activity calls are given as the source filed them. No stated cut-off is given here; in the data, active means inhibition mostly above about 37% (no sharp cut-off); inactive means mostly below about 20%.
# System: PriA–SSB C-terminal tail interaction (Klebsiella pneumoniae)
# Experiment: inhibitors of Klebsiella pneumoniae PriA binding to SSB C-terminal tail, primary screen, biochemical, AlphaScreen (AID 1272365);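 further: plate controls were negative control peptide for no effect and reference peptide for full effect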
# Conditions: AlphaScreen SSBct-PriA binding, biotinylated peptide; at 33 µM; hits give high values
row,SMILES,inhibition
1,CCc1ccc(OP(C)(=O)Nc2cccnc2)cc1 (stereo unspecified),inactive: -1.13%
2,CP(=O)(Oc1ccccc1)N1CCOC1=O (stereo unspecified),inactive: -1.93%
3,O=C(OCCCN1CCCC1)C(O)(c1ccccc1)C1CCCCC1 (stereo unspecified),inactive: -10.6%
4,COc1ccccc1OP(C)(=O)Nc1c(C)n(C)n(-c2ccccc2)c1=O (stereo unspecified),inactive: -8.58%
5,COc1ccc(OP(C)(=O)Nc2ccc(Br)cc2)cc1 (stereo unspecified),inactive: -5.62%
6,CCN(CC)CC(O)COC(=O)C(O)(c1ccccc1)C1CCCCC1 (stereo unspecified),inactive: -16.7%
7,CN(C)C(=O)c1c([N+](=O)[O-])cc([N+](=O)[O-])cc1[N+](=O)[O-],inactive: 4.01%
8,CP(=O)(Nc1ccc(Cl)cc1)Oc1ccc(F)cc1 (stereo unspecified),inactive: -5.29%
9,COc1ccccc1OP(C)(=O)Nc1ccccc1Br (stereo unspecified),inactive: 6.24%
10,CC(C)(C)c1ccc(OP(C)(=O)O)cc1,inactive: 0.67%
11,CP(=O)(OC12CC3CC(CC(C3)C1)C2)OC12CC3CC(CC(C3)C1)C2,inactive: 1.69%
12,CCOC(=O)c1ccc(NP(C)(=O)Oc2ccc(Cl)cc2)cc1 (stereo unspecified),inactive: -15.2%
13,COc1ccc(OP(C)(=O)Nc2ccccc2Br)cc1 (stereo unspecified),inactive: -2.64%
14,COc1ccccc1OP(C)(=O)Nc1ccc(C)c(C)c1 (stereo unspecified),inactive: -5.08%
15,Cc1cc(C)cc(OP(C)(=O)Nc2cccc(C(F)(F)F)c2)c1 (stereo unspecified),inactive: -10.7%
16,O=C1C(O)=C([N+](=O)[O-])C(=O)C(O)=C1[N+](=O)[O-],inactive: 2.64%
17,CCCCCCCCCCCCCCCC1C[N+](C)(C)CCOP(C)(=O)O1 (stereo unspecified),inactive: -16.5%
18,CP(=O)(Nc1ccc(Cl)cc1Cl)Oc1ccccc1 (stereo unspecified),inactive: -13.5%
19,CP(=O)(OCCOc1ccccc1)OCCOc1ccccc1,inactive: -8.87%
20,CC(C)N1C(=O)CC2(CCN(CCOC(=O)C(O)(c3ccccc3)c3ccccc3)CC2)C1=O,inactive: -13.1%
21,CN(C)CCOC(=O)C(O)(c1ccccc1)C1CCCC1 (stereo unspecified),inactive: -13.1%
22,COc1ccc(OP(C)(=O)Nc2ccccn2)cc1 (stereo unspecified),inactive: -1.21%

row,SMILES,inhibition
1,COc1ccccc1OP(C)(=O)Nc1ccc(Br)cc1 (stereo unspecified),inactive: -0.84%
2,CCc1ccc(OP(C)(=O)O)cc1,inactive: -17.5%
3,COc1ccccc1OP(C)(=O)Nc1ccc(C)cc1C (stereo unspecified),inactive: -8.71%
4,CP(=O)(Nc1ccccn1)Oc1ccccc1 (stereo unspecified),inactive: -4.58%
5,Cc1c(NP(C)(=O)Oc2ccc(C(C)C)cc2)c(=O)n(-c2ccccc2)n1C (stereo unspecified),inactive: -5.98%
6,O=[N+]([O-])c1cc([N+](=O)[O-])c(Nc2ccccn2)c([N+](=O)[O-])c1,inactive: 20.8%
7,CC(C)c1ccc(OP(C)(=O)Nc2ccc(SC(F)(F)F)cc2)cc1 (stereo unspecified),inactive: -12.3%
8,CP(=O)(Nc1ccccc1F)Oc1ccccc1 (stereo unspecified),inactive: -15%
9,O=C(OCCN1CCN(CCOCc2ccccc2)CC1)C(O)(c1ccccc1)c1ccccc1,inactive: -0.26%
10,O=C(OC1CN2CCC1CC2)c1ccc([N+](=O)[O-])cc1 (stereo unspecified),inactive: -5.28%
11,COc1ccc(OP(C)(=O)Nc2ccc(SC(F)(F)F)cc2)cc1 (stereo unspecified),inactive: -4.92%
12,CCOC(=O)c1ccc(NP(C)(=O)Oc2ccc(F)cc2)cc1 (stereo unspecified),inactive: 1.16%
13,CCCCCOc1ccc(NP(C)(=O)Oc2ccc(Cl)cc2Cl)cc1 (stereo unspecified),inactive: -16.7%
14,O=[N+]([O-])c1cc([N+](=O)[O-])c(OC2CCCCC2O)c([N+](=O)[O-])c1 (stereo unspecified),inactive: -12.4%
15,CP(=O)(Nc1ccccc1)Oc1ccc(F)cc1 (stereo unspecified),inactive: 0.95%
16,CCN(CC)CCCOC(=O)C(O)(c1ccccc1)C1CCCCC1 (stereo unspecified),inactive: 1.06%
17,Cc1c([N+](=O)[O-])cc([N+](=O)[O-])c(Br)c1[N+](=O)[O-],inactive: -6.78%
18,COc1ccc(NP(C)(=O)Oc2ccccc2OC)cc1 (stereo unspecified),inactive: 1.2%
19,C=CCN1CCN(CCOC(=O)C(O)(c2ccccc2)c2ccccc2)CC1,inactive: -11%
20,COc1ccc(OP(C)(=O)Nc2cccc(Br)c2)cc1 (stereo unspecified),inactive: -9.39%
21,O=[N+]([O-])c1cc([N+](=O)[O-])c(NCC2CCS(=O)(=O)C2)c([N+](=O)[O-])c1 (stereo unspecified),inactive: -11.9%
22,O=[N+]([O-])c1ccc(OP2(=O)COCCO2)cc1 (stereo unspecified),inactive: -12.1%

row,SMILES,inhibition
1,CCOP(C)(=S)SCC(=O)NC(C)(CC)C(=O)O (stereo unspecified),inactive: -4.01%
2,C/C1=C2N=C(/C=C3N=C(/C(C)=C4\[N-][C@@](C)([C@@H]5N=C1[C@](C)(CCC(=O)NC[C@@H](C)OP(=O)([O-])O[C@H]1[C@@H](O)[C@@H](n6cnc7cc(C)c(C)cc76)O[C@@H]1CO)[C@H]5CC(N)=O)[C@@](C)(CC(N)=O)[C@@H]4CCC(N)=O)[C@@](C)(CC(N)=O)[C@@H]\3CCC(N)=O)C(C)(C)[C@@H]/2CCC(N)=O.[C-]#N.[Co+3],inactive: 82%
3,CP(=O)(Nc1ccc(SC(F)(F)F)cc1)Oc1ccc(F)cc1 (stereo unspecified),inactive: 5.06%
4,Cc1ccccc1NP(C)(=O)Nc1ccccc1C,inactive: -15%
5,CP(=O)(Nc1ccc2c(c1)OCCO2)Oc1ccccc1 (stereo unspecified),inactive: -2.47%
6,O=[N+]([O-])c1cc([N+](=O)[O-])c(-n2nnc3ccccc32)c([N+](=O)[O-])c1,inactive: -2%
7,O=[N+]([O-])c1cc([N+](=O)[O-])c(-c2cnn(-c3ccccc3)c2)c([N+](=O)[O-])c1,active: 38.5%
8,O=[N+]([O-])c1cc([N+](=O)[O-])c(Nc2nnnn2CCO)c([N+](=O)[O-])c1,inactive: -3.35%
9,CCCOc1ccc(NP(C)(=O)Oc2ccc(Cl)cc2)cc1 (stereo unspecified),inactive: -13%
10,CP(=O)(Nc1ccc(SC(F)(F)F)cc1)Oc1ccccc1 (stereo unspecified),inactive: -4.61%
11,COc1ccccc1OP(C)(=O)Nc1c(C)cccc1C (stereo unspecified),inactive: -6.69%
12,CN1CCCCC1COC(=O)C1(O)c2ccccc2CCc2ccccc21 (stereo unspecified),inactive: -1.05%
13,O=C(O)c1cccc(Nc2c([N+](=O)[O-])cc([N+](=O)[O-])cc2[N+](=O)[O-])c1,inactive: 8.55%
14,Cc1cc(C)cc(OP(C)(=O)Nc2ccc(C)cc2C)c1 (stereo unspecified),inactive: 2.57%
15,CCOC(=O)c1ccc(NP(C)(=O)Oc2cc(C)cc(C)c2)cc1 (stereo unspecified),inactive: -21.8%
16,COc1ccccc1OP(C)(=O)Nc1cccc(Br)c1 (stereo unspecified),inactive: -7.25%
17,Cc1cc(C)cc(OP(C)(=O)Nc2ccccn2)c1 (stereo unspecified),inactive: -12.2%
18,CP(=O)(Nc1cccc(Br)c1)Oc1ccccc1 (stereo unspecified),inactive: -11.5%
19,Cc1ccc(C)c(NP(C)(=O)Oc2ccccc2)c1 (stereo unspecified),inactive: -11.2%
20,CCC(CO)(C(=O)OC1CN2CCC1CC2)c1ccccc1 (stereo unspecified),inactive: 10.4%
21,Cc1cccc(C)c1OP(C)(N)=O (stereo unspecified),inactive: -9.44%
22,CC(C)(C)c1ccc(OP(C)(=O)Nc2ccc(SC(F)(F)F)cc2)cc1 (stereo unspecified),inactive: 5.96%

row,SMILES,inhibition
1,O=[N+]([O-])c1ccc2c(c1)C=Nc1ccccc1O2,inactive: 24%
2,O=[N+]([O-])c1cc([N+](=O)[O-])c(Nc2cccnc2)c([N+](=O)[O-])c1,inactive: 3.32%
3,COc1ccc(OP(C)(=O)Nc2cccc(F)c2)cc1 (stereo unspecified),inactive: -0.47%
4,COc1ccccc1OP(C)(=O)Nc1cc(Cl)ccc1C (stereo unspecified),inactive: -1.4%
5,Cc1cc(C)cc(OP(C)(N)=O)c1 (stereo unspecified),inactive: 11%
6,CCOC(=O)c1ccc(NP(C)(=O)Oc2ccccc2)cc1 (stereo unspecified),inactive: -0.47%
7,Cc1ccc(NP(C)(=O)Oc2ccccc2)c(C)c1 (stereo unspecified),inactive: -12.8%
8,COc1ccccc1OP(C)(=O)Nc1ccc(C)cc1 (stereo unspecified),inactive: -8.83%
9,COc1ccccc1OP(C)(=O)Nc1ccccc1 (stereo unspecified),inactive: 5.09%
10,CP(=O)(Nc1ccccc1Br)Oc1ccccc1 (stereo unspecified),inactive: -8.73%
11,CP(=S)(Nn1cnnc1)Oc1ccccc1 (stereo unspecified),inactive: -16.5%
12,Cc1cc(C)cc(OP(C)(=O)Nc2ccc(SC(F)(F)F)cc2)c1 (stereo unspecified),inactive: 6.61%
13,CP(=O)(NC(=O)Nc1ccccc1)Oc1ccccc1 (stereo unspecified),inactive: -7.69%
14,CCc1ccc(OP(C)(=O)N2CCN(c3ccc([N+](=O)[O-])cc3)CC2)cc1 (stereo unspecified),inactive: 7.59%
15,CP(=O)(Oc1ccccc1)OC(c1ccccc1)C(F)(F)F (stereo unspecified),inactive: -8.01%
16,Cc1cccc(C)c1OP(C)(=O)Nc1ccc(SC(F)(F)F)cc1 (stereo unspecified),inactive: 0.23%
17,CP(=O)(Nc1ccc(SC(F)(F)F)cc1)Oc1ccc(Cl)cc1 (stereo unspecified),inactive: -18.4%
18,CP(=O)(Nc1ccccn1)Oc1ccc(Cl)cc1 (stereo unspecified),inactive: -10.7%
19,CCOP(C)(=S)SCC(=O)NC(C)C(=O)O (stereo unspecified),inactive: -6.61%
20,CCOC(=O)c1ccc(NP(C)(=O)Oc2ccc(OC)cc2)cc1 (stereo unspecified),inactive: 6.61%
